Measured values: paper PMC9364801, “APOBEC3 selects V179I in HIV-1 reverse transcriptase to provide selective advantage for non-nucleoside reverse transcriptase inhibitor-resistant mutants” (Frontiers in virology, 2022)

Biological target: HIV-1 reverse transcriptase (RT), HIV-1NL4-3 (Human immunodeficiency virus type 1 (NEW YORK-5 ISOLATE), UniProt P12497)
Set-up: gene gag-pol
Details: TZM-bl cells, MOI 0.02, 48 h; virus infectivity read-out; NNRTI pocket

SMILES: Cc1cc(/C=C/C#N)cc(C)c1Nc1ccnc(Nc2ccc(C#N)cc2)n1 [RPV, rilpivirine]
- RPV EC50: 0.19 ± 0.06 nM
